In paper doi:10.1101/2023.06.06.543969 (bioRxiv, 2023):

Biological target: influenza hemagglutinin (HA) from H1N1 A/California/07/2009 (Influenza A virus H1N1 …, UniProt C3W5X2, biotinylated)
Assay: BLI
Details: both partners purified

B1: 5J8 Fab VL D50Y (Fab, V domains shown)
VH: EVQLVESGPGLVKPSDILSLTCAVSGYSISSNYYWGWIRQPPGKGLEWIGSIYHSGSTYYKPSLESRLGISVDTSKNQFSLKLSFVSAADTAVYYCARHVRSGYPDTAYYFDKWGQGTLVTVSS
VL: SYVLTQPPSVSVAPGETARISCGGNNIGTKVLHWYQQTPGQAPVLVVYYDSDRPSGIPERFSGSNSGNTATLTISRVEVGDEADYYCQVWDISTDQAVFGGGTKLTVL
binding result: no binding (tested: 300 nM)
